Test results as given in article PMC10965894.
The exact form of at least one protein or probe is not confirmed.

System: His-ScbZIP72 (Saccharum spp. hybrid (sugarcane) cultivar ROC22)
Assay: EMSA
Details: LightShift Chemiluminescent EMSA Kit (Thermo) per manual; pH and temperature not stated; recombinant protein; protein details: His (pET-28a); label: 3'-biotin

“TGTCGGTTGTACGTGTCCAGCACCTTTGTTCGGTGCGTGTCCTTTTCGGGCATCTGTGCCCATCTTCCTTTGTCGGCCACGTTGCCTTTGCTTA (double strand) [sL]”: binds.
